Anti-infective test results gathered from many reports (values: NIAID ChemDB through PubChem).

All rows: growth or infection tests; species: Mycobacterium tuberculosis

A number after MIC or MFC names an inhibition level or a share of isolates.

smiles,measure,strain,tested at,method,cells,mutations,value
COc1ccc(C(=O)/C=C/c2ccccc2)c(OC)c1,MIC,H37Rv,,BACTEC / radiometric,,,12.5 µg/mL
Cc1nn2c(=O)c3c([N+](=O)[O-])c(C)nn3c(=O)c2c1[N+](=O)[O-],MIC bound,H37Rv,,resazurin,,,>6.25 µg/mL
O=C1C=CC(O)(c2cccc3ccccc23)C=C1,EC50,H37Rv,,,,,<6.25 µg/mL
O=C(/C=C/c1ccccc1)c1ccc(O)cc1O,MIC,H37Rv,,BACTEC / radiometric,,,25 µg/mL
CC(=O)c1c(O)c(C)c(O)c2c1OC1=CC(=O)C(C(C)=O)C(=O)C12C,MIC,PZA-R,,,,,12.5 µg/mL
CCCCCc1cc(O)cc(OC)c1,MIC,H37Rv,,,,,60 µg/mL
O=c1[nH]c(=O)n(-c2ccc([N+](=O)[O-])cc2)cc1Br,inhibition,,6.25 µg/mL,,,,<90%
Cc1ccc(-c2c(C)cc3oc(=O)cc(C)c3c2C)cc1,EC90,H37Rv,,turbidity,,FadD32,>250 µM
O=C(/C=C1\N[C@@H]2CCCC[C@H]2N\C1=C/C(=O)c1ccccc1)c1ccccc1,EC50,,,,,,>6.25 µg/mL
CCN(CC)CCNC(=O)c1ccc([N+](=O)[O-])cc1Cl,MIC,N73,,,,,50 µg/mL
CO[C@H]1/C=C/O[C@@]2(C)Oc3c(C)c(O)c4c(O)c(c(/C=N/N5CCN(C)CC5)c(O)c4c3C2=O)NC(=O)/C(C)=C\C=C\[C@H](C)[C@H](O)[C@@H](C)[C@@H](O)[C@@H](C)[C@H](OC(C)=O)[C@@H]1C,MIC90,H37Ra,,turbidity,,,0.1 µM
O=C(C/C(=N\NC(=O)C[n+]1ccccc1)C(=O)Nc1nc2ccc([N+](=O)[O-])cc2s1)CC(c1ccccc1)c1c(O)c2ccccc2oc1=O.[Cl-],MIC bound,H37Rv,,BACTEC,,,>12.5 µg/mL
CC(=O)Oc1ccc(C2CC(=O)c3ccc(O)cc3O2)cc1,MIC,H37Rv,,BACTEC / radiometric,,,>100 µg/mL
CC(C)CCOc1ccc(N=c2scc(-c3ccccc3)n2-c2ccc(OCCC(C)C)cc2)cc1,MIC,H37Rv,,,,,32 µg/mL
Cc1ccc(NC(=O)C(C)NCC(C)C)cc1Cl.Cl,inhibition,H37Rv,12.5 µg/mL,BACTEC,,,2%
CC(C)C[C@@H]1NC(=O)[C@H](Cc2c[nH]c3ccccc23)NC(=O)[C@H](CCCCN)NC(=O)[C@H](CC(N)=O)NC(=O)[C@H](C(C)C)NC(=O)[C@@H](CC(C)C)NC1=O,EC50,H37Ra,,turbidity,,,>30 µM
CN1C2C=CC1c1c(C3=NC(C)(C)CO3)cccc12,inhibition,H37Rv,12.5 µg/mL,BACTEC,,,-19%
CCCCCc1cc(O)c(C)c(OC)c1,MIC,H37Rv,,,,,≤2.58 µg/mL
Cc1ccsc1/C=N/Nc1cnccn1,MIC bound,H37Rv,,BACTEC,,,>12.5 µg/mL
C=CCOc1ccc(N=c2scc(CCN3CCCCC3)n2-c2ccc(OCC=C)cc2)cc1,MIC,H37Rv,,,,,24 µg/mL
Cc1cc2oc(=O)cc(-c3ccccc3)c2c(C)c1-c1cccc(C(F)(F)F)c1,EC90,H37Rv,,turbidity,,FadD32,>64 µM
CC1OC2=C(C(=O)c3ccccc3C2=O)C(O)C1O,inhibition,H37Rv,12.5 µg/mL,BACTEC,,,68%
CC1(C)S[C@@H]2[C@H](NC(=O)Cc3ccccc3)C(=O)N2[C@H]1C(=O)O,MBC,H37Rv,,resazurin,,,256 µg/mL
CC1=CC(=O)C2=C(C)CCC3C(C)C(=O)OC3C12,MIC bound,H37Rv,,BACTEC,,,>12.8 µg/mL
O=[N+]([O-])c1ccc2nc(/C=C(\O)c3ccccc3)c(/C=C(\O)c3ccccc3)nc2c1,EC50,,,,,,>6.25 µg/mL
COc1ccc(C(=O)/C=C/c2ccc(C(C)C)cc2)c(OC)c1,MIC,H37Rv,,BACTEC / radiometric,,,25 µg/mL
O=Cc1ccc(NNC(=O)N2CCN(c3nc(N4CCN(c5ccccc5)CC4)c4ccccc4n3)CC2)cc1,MIC,H37Rv,,BACTEC / fluorescence,,,>6.25 µg/mL
CC(C)C[C@@H]1NC(=O)[C@H](Cc2c[nH]c3ccccc23)NC(=O)[C@@H](CCCN=C(N)N)NC(=O)[C@H](CC(N)=O)NC(=O)[C@H](C(C)C)NC(=O)[C@@H](CC(C)C)NC1=O,EC50,CDC1551,,turbidity,,,0.71 µM
S=C(Nc1ccccc1)Nc1ccc(-c2nnc(Nc3ccc(Cl)cc3)s2)cc1,inhibition,H37Rv,6.25 µg/mL,BACTEC,,,32%
Cc1ccccc1NNC(=O)N1CCN(c2nc(N3CCN(c4ccccc4)CC3)c3ccccc3n2)CC1,inhibition,H37Rv,200 µg/mL,agar / visual reading,,,89%
CCc1ccc(N=c2scc(CCN3CCCCC3)n2-c2ccc(CC)cc2)cc1,MIC,H37Rv,,,,,125 µg/mL
O=C(Cc1cccs1)N[C@@H]1C(=O)N2C(C(=O)[O-])=C(C[n+]3ccccc3)CS[C@H]12,MBC,H37Rv,,resazurin,,,8 µg/mL
Cc1cn(-c2ccc([N+](=O)[O-])cc2)c(=O)[nH]c1=O,inhibition,,6.25 µg/mL,,,,<90%
CCN(CC)CCOC(=O)c1ccc(N=Nc2cc(Cl)c(C)cc2O)cc1,inhibition,H37Rv,12.5 µg/mL,BACTEC,,,73%
O=C(O)c1cn(N2CCOCC2)c2cc(NC3CC3)c([N+](=O)[O-])cc2c1=O,MIC90,ATCC 27294 (WT),,,,,65 µM
C[C@@H](O)[C@H]1C(=O)N2C(C(=O)O)=C(SCCN=CN)C[C@H]12,MBC,H37Rv,,resazurin,,,>64 µg/mL
CN1CCC2CCCCN2CC1=O,MIC bound,H37Rv,,BACTEC,,,>12.5 µg/mL
CCCCOc1ccc(N=c2scc(C)n2-c2ccc(OCCN(CC)CC)cc2)cc1,MIC,H37Rv,,,,,32 µg/mL
CC(=O)/C(N=Nc1ccc(-c2nnc(Nc3ccc(Cl)cc3)s2)cc1)=C(\C)O,inhibition,H37Rv,6.25 µg/mL,BACTEC,,,15%
CCCCC(=O)c1cc(O)c(C)c(OC)c1,MIC,H37Rv,,,,,12.8 µg/mL
Nc1ccc(-c2nnc(Nc3ccc([N+](=O)[O-])cc3)s2)cc1,inhibition,H37Rv,6.25 µg/mL,BACTEC,,,37%
Cc1cc2oc(=O)cc(-c3ccccc3)c2c(C)c1-c1ccc(C)c2ccccc12,EC90,H37Rv,,turbidity,,FadD32,>64 µM
CN[C@@H]1[C@@H](O)C(O[C@@H]2[C@@H](O)[C@H](OC3O[C@H](CN)[C@@H](O)[C@H](O)[C@H]3O)[C@@H](N)C[C@H]2NC(=O)[C@@H](O)CN)OC[C@]1(C)O,MIC,OR100,,,,,>200 µg/mL
O=C1C=CC(O)(c2ccccn2)C=C1,EC50,H37Rv,,,,,<6.25 µg/mL
CC1=C2[C@@H]3OC(=O)[C@H](C)[C@H]3CC[C@]2(C)C=C/C1=N\O,MIC,H37Rv,,BACTEC,,,≥12.8 µg/mL
O=C(/C=C/c1c[nH]c2ccccc12)c1ccc(Cl)cc1,MIC,H37Rv,,BACTEC / radiometric,,,>100 µg/mL
NC(N)=N/C(N)=N/c1nn[nH]n1,inhibition,H37Rv,6.25 µg/mL,resazurin,,,2%
O=C1C=CC(O)(c2cnc3ccccc3c2)C=C1,EC50,H37Rv,,,,,<6.25 µg/mL
O=c1[nH]c(=O)n(-c2ccc([N+](=O)[O-])cc2[N+](=O)[O-])cc1Br,inhibition,,6.25 µg/mL,,,,<90%
O=C(NNc1cccc([N+](=O)[O-])c1)N1CCN(c2nc(N3CCN(c4ccccc4)CC3)c3ccccc3n2)CC1,MIC,H37Rv,,BACTEC / fluorescence,,,>6.25 µg/mL
Cc1cc(S(=O)(=O)Nc2nnc3cc(C(F)(F)F)cc(C)n23)c(S)cc1Cl,inhibition,H37Rv,12.5 µg/mL,BACTEC,,,0%
O=C1CC(Sc2ccccc2)C(O)(c2nc3ccccc3s2)C(Sc2ccccc2)C1,EC50,H37Rv,,,,,<6.25 µg/mL
COc1ccc(C(=O)/C=C/c2ccc(OC(C)=O)cc2)c(OC)c1,MIC,H37Rv,,BACTEC / radiometric,,,>100 µg/mL
COc1cc(O)cc(CCCCC/C=C\CCCCCCCc2cc(O)c(C)c(O)c2)c1,MIC,H37Rv,,,,,25.6 µg/mL
CCN(CC)CCNC(=O)c1ccc(Cl)cc1,MIC,N353,,,,,50 µg/mL
CC(=O)OC1(c2ccccc2)C=CC(=O)C=C1,MIC,H37Rv,,,,,>6.25 µg/mL
CC(C)C[C@@H]1NC(=O)[C@H](Cc2c[nH]c3ccccc23)NC(=O)[C@@H](CCCN)NC(=O)[C@H](CC(N)=O)NC(=O)[C@H](C(C)C)NC(=O)[C@@H](CC(C)C)NC1=O,MIC90,CDC1551,,turbidity,,,2.97 µM
O=c1[nH]c(=O)n(-c2ccc([N+](=O)[O-])cc2[N+](=O)[O-])cc1F,inhibition,,6.25 µg/mL,,,,<90%
O=C(/C=C1\N[C@H]2CCCC[C@H]2N\C1=C/C(=O)c1ccccc1)c1ccccc1,EC50,,,,,,>6.25 µg/mL
O=C(O)c1cn(CCF)c2cc(NCCF)c([N+](=O)[O-])cc2c1=O,MIC90,ATCC 27294 (WT),,,,,>200 µM
Cc1c2ccnc(C(N)=O)c2c(C)c2c1[nH]c1ccccc12,inhibition,H37Rv,6.25 µg/mL,resazurin,,,100%
CC1(C)S[C@@H]2[C@H](NC(=O)[C@H](N)c3ccc(O)cc3)C(=O)N2[C@H]1C(=O)O,MIC50,27 strains,,,,,>32 µg/mL
CN1CCc2cc3c(cc2[C@H]1[C@@H]1OC(=O)c2c1ccc1c2OCO1)OCO3,MIC,H37Rv,,BACTEC,,,≥128 µg/mL
Cc1csc(=Nc2ccc(OCCC(C)C)cc2)n1-c1ccc(OCCC(C)C)cc1,MIC,H37Rv,,,,,16 µg/mL
CC(=O)OC[C@]12CCC(C)=CC1O[C@@H]1[C@H](OC(C)=O)[C@@H](OC(C)=O)[C@@]2(C)C12CO2,MIC bound,H37Rv,,BACTEC,,,>12.5 µg/mL
C=Cn1cc(C(=O)O)c(=O)c2cc([N+](=O)[O-])c(NCCF)cc21,MIC50,ATCC 27294 (WT),,,,,>200 µM
N=C1C=CC(O)(c2nc3ccccc3s2)C(SCC(NC(=O)CCC(N)C(=O)O)C(=O)NCC(=O)O)C1,inhibition,H37Rv,6.25 µg/mL,,,,28%
CCC(C)CCOc1ccc(N=c2scc(C)n2-c2ccc(OCCC(C)CC)cc2)cc1,MIC,H37Rv,,,,,>125 µg/mL
CCCC/C=C\CCCCCCCCCc1cc(O)cc(OC)c1,MIC,H37Rv,,,,,33.8 µg/mL
CCN(CC)CCNC(=O)c1cc([N+](=O)[O-])cc([N+](=O)[O-])c1,MIC,N73,,,,,5 µg/mL
CCC1(O)CC2C3C(C(=O)OC)=C4Nc5ccccc5C45CCN(C31)C25.CCC1(O)CC2C3C(C(=O)OC)=C4Nc5ccccc5C45CCN(C31)C25,MIC,H37Rv,,BACTEC,,,≥12.5 µg/mL
O=C(/C=C/c1ccc(O)cc1)c1ccc(O)cc1O,MIC,H37Rv,,BACTEC / radiometric,,,25 µg/mL
CC1(C)CC[C@]2(C(=O)O)CC[C@]3(C)C(=CCC4[C@@]5(C)CC[C@H](O)C(C)(C)C5CC[C@]43C)C2C1,MIC,H37Rv (ethambutol-resistant),,,,,50 µg/mL
COc1ccc(C(=O)/C=C/c2ccc(OC(=O)c3ccccc3)cc2)c(OC)c1,MIC,H37Rv,,BACTEC / radiometric,,,25 µg/mL
COc1ccc(C(=O)c2c(C(=O)NOCCCc3ccccc3)[nH]c(=O)c(C#N)c2C(=O)NOCCCc2ccccc2)cc1,MIC bound,H37Rv,,resazurin,,,>6.25 µg/mL
CCCCCOc1ccc(N=c2scc(C)n2-c2ccc(OCCCCC)cc2)cc1,MIC,H37Rv,,,,,>125 µg/mL
c1ccc2c(c1)nc1cc(NC3CCCCC3)c(=NC3CCCCC3)cc-1n2C1CCCCC1,MIC,H37Rv,,,VERO,,3.1 µg/mL
O=C(NNc1ccccc1)N1CCN(c2nc(N3CCN(c4ccccc4)CC3)c3ccccc3n2)CC1,MIC,H37Rv,,agar / visual reading,,,100 µg/mL
COC(=O)c1nc(NN)[nH]c(=O)c1CCCCCc1c(C(=O)OC)[nH]c(NN)cc1=O,MIC,H37Rv,,BACTEC,,,≥12.5 µg/mL
COC1(c2nc3ccc(C)cc3s2)C=CC(=NS(=O)(=O)c2ccc(C)cc2)C=C1,EC50,H37Rv,,,,,>6.25 µg/mL

Percent inhibition refers to the dose given; in toxicity tests it is the harm to the cells. ECn: concentration that inhibits the pathogen or its effect by n%. An empty or dashed field is not shown. MIC bound comes from a single tested concentration. Lines come from different laboratories, so protocols vary.